These molecules were tested on root-knot nematode, Meloidogyne incognita var. acrita (assay: Nematocide Test). Settings: 3.33 mg of test compound per jar; galling of cucumber roots, approximately 3 weeks.
Design: key to the marks not given beside the values

Row | SMILES | pesticidal activity rating, Nematode
1 | CSC(C)(C)C=NOC(=O)N(C)SC(C)(C)CCl | B
2 | CN(SC(C)(CCl)CCl)C(=O)ON=C1CSCCS1 | A
3 | CN(SC(C)(C#N)CCl)C(=O)ON=C1CSCCS1 (stereo not shown) | A
4 | CN(SC(C)(C)CCl)C(=O)ON=C1CSCCS1 | A
5 | CC1OCSC1=NOC(=O)N(C)SC(C)(C)CCl (stereo not shown) | C
6 | CSC(C)(C)C=NOC(=O)N(C)SC(C)(CCl)CCl | C
7 | CSC(C)=NOC(=O)N(C)SC(C)(C)CCl | A
8 | CN(SC(C)(C#N)CCl)C(=O)ON=CC(C)(C)[N+](=O)[O-] (stereo not shown) | A
9 | CN(SC(C)(CCl)CCl)C(=O)ON=C1SC(C)(C)C(=O)N1C | C
10 | CSC(C)(C)C=NOC(=O)N(C)SC(C)(C#N)CCl (stereo not shown) | A

— patent US4485113A (priority 1979, dated 1984)
